# Measurements from PubChem BioAssay AID652162 (Broad Institute, 2013).
# The entries are a selection whose mix differs from that of the whole data set. Calls of active or inactive are those of the source. Rule as the data show it: active = inhibition above about 10%; inactive = the rest.
# Molecular target: Toxin B (Clostridioides difficile) (UniProt P18177)
# Assay: TcdB glycohydrolase inhibitors, primary screen, biochemical, single point, plate reader (AID 652162)
# Settings: TcdB glycohydrolase enzymatic assay, at 9.99 µM, active compounds read high
row,Compound,inhibition
1,CCC1=CC2Cc3nc4ccc(Cl)cc4c(N)c3C(C1)C2 (stereo not drawn),inactive: 0.515%
2,CCOP(=O)(NC(=NC(C)c1ccccc1)NC(C)c1ccccc1)OCC (stereo not drawn),inactive: 1.32%
3,CCOP(=O)(Nc1ccc(C)cn1)OCC,inactive: 0.42%
4,CN(CCCl)Cc1cc(Cl)c(NC2=NCCN2)c(Cl)c1,inactive: 3.24%
5,CN(C(=O)Cc1ccc(Cl)c(Cl)c1)[C@@H]1CCCC[C@H]1N1CCCC1,inactive: 2.02%
6,CC(C)/C=N\N=C(\N)N[N+](=O)[O-],inactive: -0.482%
7,CN(C(=O)Cc1ccc(Cl)c(Cl)c1)C1CCCC[C@@H]1N1CCCC1 (stereo partly drawn),inactive: 0.444%
8,COc1ccccc1CNC(=O)COC(=O)C(O)(c1ccccc1)c1ccccc1,inactive: 0.213%
9,O=C(O)C(=O)c1ccc(N(CCCl)CCCl)cc1,inactive: 1.47%
10,O=C(Nc1ccncc1[N+](=O)[O-])c1ccc([N+](=O)[O-])cc1[N+](=O)[O-],inactive: 0.57%
11,COP1(=S)c2c(C)nn(CCC#N)c2N=C(c2ccc(F)cc2)N1C (stereo not drawn),inactive: 0.29%
12,COC(=O)C1(C)COP(=O)(N2CCCC2)OC1 (stereo not drawn),inactive: 0.713%
13,O=C(OC1CN2CCC1CC2)c1cccc([N+](=O)[O-])c1 (stereo not drawn),inactive: 0.195%
14,CCOC(=O)c1ccc(NC(=O)C(C)(CCl)SC)cc1 (stereo not drawn),inactive: -0.939%
15,COP(=O)(OC)N1CC1c1ccccc1 (stereo not drawn),inactive: -1.29%
16,CCCCOc1ccc(C(=O)NCC2(N3CCCCC3)CCCCC2)cc1OC,inactive: 0.364%
17,O=C(O)C(O)c1ccc(N(CCCl)CCCl)cc1 (stereo not drawn),inactive: -4.46%
18,CCOC(=O)Nc1ccc([As](=O)(O)O)c(O)c1,inactive: 0.668%
19,CC1CCNP(=O)(N(CCCl)CCCl)O1 (stereo not drawn),inactive: -2.32%
20,Cc1cc(SC(NC=O)C(Cl)(Cl)Cl)ncn1 (stereo not drawn),inactive: 0.872%
21,O=P(Nc1ccccn1)(c1cccc2ccccc12)c1cccc2ccccc12,inactive: 0.384%
22,O=[N+]([O-])c1ccc(Nc2ccc(Oc3ccc([N+](=O)[O-])cc3[N+](=O)[O-])cc2)c([N+](=O)[O-])c1,inactive: 0.951%

row,Compound,inhibition
1,CCOC(=O)Nc1cccc([As](=O)(O)O)c1,inactive: -1.56%
2,Cc1ccc(OP(=O)(Nc2ccc([N+](=O)[O-])cn2)Oc2ccc(C)cc2)cc1,inactive: 1.16%
3,[N-]=[N+]=NC1CCCCC1NC(=O)c1cc([N+](=O)[O-])cc([N+](=O)[O-])c1 (stereo not drawn),inactive: 0.708%
4,Cc1ccc2nc3c(c(C)c2c1)CC(C(Cl)Cl)S3 (stereo not drawn),inactive: -1.24%
5,C[As](=O)(O)c1cccc(C(=O)O)c1,inactive: 0.35%
6,O=[As](O)(c1ccc(O)cc1)c1ccccc1O,inactive: 0.047%
7,O=[N+]([O-])c1ccc(-c2cc([N+](=O)[O-])c(O)c([N+](=O)[O-])c2)cc1,inactive: -1.65%
8,COc1cc(C(=O)NCC2(N3CCOCC3)CCCCC2)ccc1OCC(C)C,inactive: 1.38%
9,CC(C)NC(=O)NP(=O)(Oc1ccccc1)Oc1ccccc1,inactive: 0.477%
10,O=C(OC1CN2CCC1CC2)c1cccc2[nH]cnc12 (stereo not drawn),inactive: -1.08%
11,COC(=O)C1(C)COP(=O)(N2CCCCCC2)OC1 (stereo not drawn),inactive: -0.806%
12,CC(C)c1ccc(OP(=O)(Nc2ccccn2)Oc2ccccc2F)cc1 (stereo not drawn),inactive: 1.75%
13,O=P1(N(CCCl)CCCl)OCCCN1CCCl (stereo not drawn),inactive: 5.02%
14,O=P1(N(CCCl)CCCl)Nc2ccccc2N1,inactive: -0.005%
15,COc1ccc(CN2/C(=N\P(=O)(Oc3ccccc3)Oc3ccccc3)Cc3ccccc3C2C2CC2)cc1 (stereo not drawn),inactive: -0.296%
16,COc1ccc2nc(NP(=O)(c3ccccc3)c3ccccc3)sc2c1,inactive: 0.244%
17,COc1cc(I)ccc1[As](=O)(O)O,inactive: -0.694%
18,Cc1c2c(nc3ccccc13)SC(C(Cl)Cl)C2 (stereo not drawn),inactive: 0.025%
19,Cc1cc(=O)[nH]c(N[N+](=O)[O-])n1,inactive: 1.28%
20,O=[N+]([O-])c1cc(Oc2ccc([N+](=O)[O-])cc2C(F)(F)F)cc([N+](=O)[O-])c1,inactive: 1.14%
21,COc1ccc(N/C(=N/P(=O)(N2CCOCC2)N2CCOCC2)N2CCOCC2)cc1,inactive: 0.293%
